# Zika virus NS2B-NS3: effect of single substitutions on growth in cell culture

Chain scanned (Zika virus MR766; NS2B from position 2 to 131, then the start of NS3):
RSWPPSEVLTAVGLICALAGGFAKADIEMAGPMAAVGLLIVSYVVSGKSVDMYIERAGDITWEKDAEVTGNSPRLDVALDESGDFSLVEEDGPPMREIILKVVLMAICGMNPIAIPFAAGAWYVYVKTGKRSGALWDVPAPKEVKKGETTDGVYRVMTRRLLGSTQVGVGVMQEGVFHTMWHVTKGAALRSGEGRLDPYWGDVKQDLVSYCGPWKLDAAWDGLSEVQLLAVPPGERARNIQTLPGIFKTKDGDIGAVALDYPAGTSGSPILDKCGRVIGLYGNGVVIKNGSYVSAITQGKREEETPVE

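Pools of virus carrying all single amino acid changes were selected for growth in Huh-7.5 cells. Deep sequencing gave the change in frequency of each mutant relative to wild type, averaged over three replicate libraries (two for positions 207-308). The aim was to find sites where inhibitor-binding pockets cannot change.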

Scale: log2 effect, wild type = 0; the lower, the more harmful to the virus. A change reads original residue, position, new residue. All changes here are to a stop codon.

For L162* the result was -7.03. For G163* the result was -6.99. S164* read -6.43. T165* read -6.52. With Q166* the assay gave -6.86. V167* read -7.64.

With G168* the assay gave -4.43. With V169* the assay gave -7.39. G170* read -4.28. With V171* the assay gave -6.67. For M172* the result was -8.58. With Q173* the assay gave -6.80.

E174* gave -5.41. For G175* the result was -5.05. V176* gave -7.18. F177* gave -6.47. H178* read -5.70. T179* read -6.83.

With M180* the assay gave -7.14. With W181* the assay gave -5.96. For H182* the result was -6.26. V183* gave -6.77. T184* read -7.75. With K185* the assay gave -7.46.

G186* read -7.21. A187* gave -6.81. A188* gave -6.38. L189* read -7.75. With R190* the assay gave -7.40. S191* gave -7.09.

For G192* the result was -7.76. For E193* the result was -6.56. With G194* the assay gave -7.48. R195* read -8.11. L196* read -7.66. D197* read -8.59.

P198* gave -8.36. With Y199* the assay gave -6.11. With W200* the assay gave -8.42. With G201* the assay gave -8.04.

The region was split into three libraries (1-103, 104-206, 207-308). Stop codons (*) centre on -7 and mark the level of dead virus. Six mutants with high scores were retested singly and none clearly outgrew wild type, so positive values are not proof of better growth. The authors count -1 or higher as tolerated. Position 1 is the last residue of NS2A.

Data from the supplement of Ni et al. 2025, doi:10.1038/s41467-025-63602-z.